Reference: PMC11841396
Construct, isoform or probe ends are uncertain for at least one entry.

Target: ArgR (Aeromonas veronii) (UniProt A0A0T6R9P2)
Assay: EMSA
Conditions: 5 mM Mg2+, […] (pH not stated), 5 mM MgCl2, 1 mM DTT, room temperature, recombinant protein, protein details: His-tag (pET28a), label: 5' 6-FAM on the ParrS-R strand, probe letters rebuilt from the primers and the genome

ACCACGCAGGCTTTATCATCAGGTTGCCATCCCGGTACTAGCCGGACTCACAGCCGCACATCGGCATGTCGCGGCCCAATATTGAGTAAATTGATGTTGGCCGCTGCATTTTAATGCACTTACAATATGCGCCCAATTCTGTTGGATTCCTTCTGATGCTCCGCCAATGTGAT (double strand) [ParrS (6-FAM)]
binding result: binds
